Experimental findings from publication PMC10125960, “Structural basis for botulinum neurotoxin E recognition of synaptic vesicle protein 2” (Nature Communications, 2023) are described below.

The assay addresses receptor-binding domain of BoNT/E (HCE), residues R846–K1252 (UniProt Q00496, biotin (biotinylated HCE in the neuron binding assay only)).

B1: VHH-JLE-G6 (residues Q1–S129), stand-alone, tag removed (VHH)
VHH: QLQLVETGGGLVKPGGSLRLSCVVSGFTFDDYRMAWVRQAPGKELEWVSSIDSWSINTYYEDSVKGRFTISTDNAKNTLYLQMSSLKPEDTAVYYCAAEDRLGVPTINAHPSKYDYNYWGQGTQVTVSS
With B1, the binding result is on record as “binds”.

B2: His/SUMO-tagged G6^WT (VHH)
VHH: QLQLVETGGGLVKPGGSLRLSCVVSGFTFDDYRMAWVRQAPGKELEWVSSIDSWSINTYYEDSVKGRFTISTDNAKNTLYLQMSSLKPEDTAVYYCAAEDRLGVPTINAHPSKYDYNYWGQGTQVTVSS
Turning to B2, the binding result is “binds”.
